# Measurements reported in PubChem BioAssay AID624099 (ICCB-Longwood, 2012)
# Assay: 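Human genes that papillomavirus E2 requires to repress the HPV18 LCR promoter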 (primary screen)
# Cells: human C33A cervical carcinoma cells (HPV-negative) stably expressing BPV1 E2 and an HPV18 LCR luciferase reporter
# Knock-down reagent: siRNA pool against human genes, 40 nM
# Duration: 72 h
# Detection: 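Per-well luciferase luminescence, z-scored on each plate against the plate mean and SD with control wells left out, then averaged across three replicate plates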
# Reading the numbers: mean z-score and z-score: higher = stronger reporter signal, weaker E2 silencing
# Hit rule: 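Hit if mean z-score reaches 2 and two or more of three replicate z-scores also reach 2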
# This is one part, drawn at random, of about 21,000 deposited reagents. 497 of them (2.4%) count as active. 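Higher z means weaker E2 silencing; only reporter increases were scored, and knock-downs that hurt cell survival may mask genuine repressor factors.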 A number with no mark means an inactive call. The numbers tell different reagents against one gene apart.
gene knocked down,reagent,mean z-score,"z-score, replicate A","z-score, replicate B","z-score, replicate C"
SPATA17,1,0.92,0.71,1.36,0.69
VEGFA,1,1.01,1,1.15,0.87
HMBS,1,0.91,0.84,1.44,0.43
RTN4RL1,1,-0.53,-0.71,-0.47,-0.4
POLR3G,1,0.32,0.39,0.27,0.28
DSTN,1,0.91,0.72,0.92,1.07
LOC150519 (retired record),1,1.11,1.12,1.19,1.02
ZDHHC2,1,0.91,1.26,1.15,0.31
SUV39H2,1,-0.09,-0.03,-0.16,-0.07
SAMD4A,1,0.58,0.76,0.53,0.44
ANKRD6,1,0,0.39,-0.04,-0.35
SMAD4,1,0.27,0.17,0.75,-0.12
CDCA7L,1,-0.07,0.03,-0.09,-0.16
STMN4,1,0.68,1.08,0.97,-0.01
YWHAZ,1,0.55,0.69,0.64,0.31
STAM2,1,0.63,0.82,0.43,0.64
CD8B,1,0.68,0.59,0.74,0.7
HMGB3P1,1,0.2,-0.03,0.02,0.62
OR7G1,1,0.57,0.71,0.62,0.39
DDX3Y,1,-0.31,-0.42,-0.38,-0.14
DNAAF9,1,-0.77,-1.12,-0.56,-0.61
GSTA2,1,-0.69,-0.69,-0.62,-0.76
PRKAG1,1,-0.84,-1.17,-0.97,-0.38
YPEL3-DT,1,0.69,0.54,0.95,0.58
RNF215,1,-0.12,-0.34,0.09,-0.12
FAM106A,1,-0.57,-0.86,-0.4,-0.45
ATF6,1,0.45,0.39,0.62,0.36
TSLIG1,1,-1.84,-1.77,-1.69,-2.07
TLCD5,1,0.06,0.12,-0.14,0.19
ABT1,1,-0.42,-0.42,-0.61,-0.23
ZBTB8A,1,0.97,1.04,0.92,0.96
RANBP17,1,0.79,0.54,0.98,0.85

A few values from above:
Result of ANKRD6 in “z-score, replicate B”: -0.04
Result for FAM106A in “z-score, replicate C”: -0.45
RTN4RL1, z-score, replicate C = -0.4
For “z-score, replicate A”, STAM2 reads 0.82
YWHAZ, z-score, replicate C: 0.31
VEGFA, z-score, replicate A: 1

The list goes on:
gene knocked down,reagent,mean z-score,"z-score, replicate A","z-score, replicate B","z-score, replicate C"
PHKA1P1,1,3.86 (active),3.94,3.84,3.81
RPL21P131,1,-3.94,-3.96,-4.08,-3.8
PSMD9,1,0.67,0.72,0.4,0.89
HS3ST3B1,1,0.46,0.53,0.35,0.51
ENTPD8,1,-0.12,-0.01,-0.16,-0.2
GINM1,1,0.27,0.57,0.22,0.02
LRRN1,1,-0.53,-0.33,-1.01,-0.26
TMEM243,1,-0.2,-0.49,-0.16,0.04
TARBP2,1,-1.07,-1.08,-1.15,-0.98
NXNL1,1,1.28,1.83,0.67,1.33
EEF1A1P16,1,1.08,1.37,1.04,0.85
PRKCG,1,0.02,-0.15,0.08,0.14
LILRA3,1,-1.43,-1.23,-1.52,-1.54
LYPLA2,1,0,0.19,0.12,-0.3
NT5C,1,0.41,0.85,0.29,0.08
KIF1A,1,-0.52,-0.45,-0.66,-0.46
ACAD10,1,-0.91,-0.99,-0.85,-0.9
MCCC1,1,-0.18,-0.12,-0.02,-0.41
CD300LF,1,-0.84,-1.12,-0.72,-0.68
CNOT7,1,-0.23,-0.08,-0.35,-0.25
ZNF791,1,0.18,0.02,-0.01,0.52
SPDYE1,1,-1.01,-1.57,-1,-0.46
MLLT1,1,0.56,0.43,0.56,0.69
MLLT1,2,2.14 (active),1.57,2.53,2.33
FIGNL2,1,-0.97,-1.11,-0.97,-0.85
NSD1,1,0.89,0.95,0.91,0.81
PLB1,1,-1.81,-1.55,-2.22,-1.66
PLB1,2,0.1,0.08,0.08,0.14
TTC22,1,-0.5,-0.26,-0.8,-0.45
SERPINB9,1,-0.73,-0.79,-0.77,-0.62
CEP290,1,1.25,1.44,1.16,1.15
CEP290,2,-0.09,-0.22,0,-0.06
MAGEB10,1,-0.35,-0.39,-0.3,-0.37
HNRNPA1P20,1,-0.13,-0.27,0.15,-0.26
LOC392145,1,0.17,0.14,0.25,0.13
LOC392145,2,0.1,-0.26,0.26,0.29
ACTA2,1,0.18,0.24,0.15,0.14
KCNIP2,1,1.43,,1.45,1.41
OR2J2,1,-1.28,-1.29,-1.5,-1.05
TMEM82,1,-0.6,0,-0.79,-1.03
DMTF1,1,-0.5,-0.17,-0.65,-0.68
